Results of unrelated studies side by side (data: NIAID ChemDB).

Shared fields: target-level tests; species: Hepatitis C virus

Blank or dashed fields: not listed here. Neighbouring rows are from separate reports. a–b is a range or a potency band. ICn is the concentration giving n% inhibition. Inhibition is in % at the dose shown (toxicity tests: loss of growth or viability).

compound,tested at,measure,protein,value
O=C(Nc1cscc1-c1nc(C(=O)O)c(O)c(=O)[nH]1)NS(=O)(=O)c1ccccc1Cl,-,IC50,HCV polymerase,<25 µM
O=C(O)c1cc2ncc(-c3ccccc3)c(-c3cccc(Oc4ccccc4)c3)n2n1,-,IC50,RNA-dependent RNA polymerase,>10 µM
CC(NC(=O)c1ccc2c(c1)nc(-c1ccc3nc(-c4ccccc4)cnc3c1)n2C1CCCCC1)C(=O)O,33 µM,inhibition,NS5B polymerase,83.24%
CC(=O)c1ccc(-c2cc(NS(=O)(=O)c3ccc(C)cc3C)c(C(=O)O)s2)cc1,-,IC50,NS3 ATPase,<5 µM
COc1ccccc1CCOC(=O)Nc1cscc1-c1nc(C(=O)O)c(O)c(=O)[nH]1,-,IC50,HCV polymerase,<25 µM
C=CCN(C(=O)Cc1ccc(Cl)cc1)c1cc(-c2ccccc2)sc1C(=O)O,-,IC50,NS3 ATPase,5–20 µM
O=C(Cc1csc2ccc(Cl)cc12)Nc1ccsc1-c1nc(C(=O)O)c(O)c(=O)[nH]1,-,IC50,HCV polymerase,<25 µM
CCc1ccc(-c2cc(NS(=O)(=O)c3ccccc3C)c(C(=O)O)s2)cc1,-,IC50,NS3 ATPase,<5 µM
O=C(O)c1ccc2c(c1)nc(-c1ccc3nc(-c4ccc5c(c4)CCCC5)ccc3c1)n2C1CCCCC1,33 µM,inhibition,NS5B polymerase,99.54%
FC(F)(F)c1ccc(Oc2ccc(-c3cnc4c(-c5nn[nH]n5)cnn4c3C3CCCCC3)cc2)cc1,-,IC50,RNA-dependent RNA polymerase,1–10 µM
Cc1ccccc1S(=O)(=O)Nc1cc(-c2ccc(Cl)cc2Cl)sc1C(=O)O,-,IC50,NS3 ATPase,5–20 µM
O=C(CNc1ccsc1-c1nc(C(=O)O)c(O)c(=O)[nH]1)NCc1ccccc1,-,IC50,HCV polymerase,<25 µM
COc1ccc(-c2ccc(Cl)cc2)c(-c2ccc3cc(-c4nc5cc(C(=O)O)ccc5n4C4CC56CCC5CCC46)ccc3n2)c1,100 µM,inhibition,NS5B polymerase,100%
COc1ccc(CNC(=O)Nc2cccc(-c3nc(C(=O)O)c(O)c(=O)[nH]3)c2)cc1,-,IC50,HCV polymerase,<100 µM
Cc1ccc(C(=O)N(c2cc(-c3ccccc3)sc2C(=O)O)C(C)C)c(C)c1,-,IC50,NS3 ATPase,<5 µM
O=C(O)c1cc2nc(-c3ccc(OCc4cccc(OC(F)(F)F)c4)cc3)c(C3CCCCC3)c(=O)n2[nH]1,-,IC50,RNA-dependent RNA polymerase,1–10 µM
O=C(O)c1nc(-c2ccccc2NS(=O)(=O)c2cc(S(=O)(=O)c3ccccc3)cs2)[nH]c(=O)c1O,-,IC50,HCV polymerase,<100 µM
Cc1ccc(S(=O)(=O)Nc2cc(-c3ccccc3)sc2C(=O)O)cc1C,-,IC50,NS3 ATPase,<5 µM
O=C(Nc1cscc1-c1nc(C(=O)O)c(O)c(=O)[nH]1)NC1CCc2ccccc2NC1=O,-,IC50,HCV polymerase,<25 µM
O=C(O)c1ccc2c(c1)nc(-c1ccc3nc(-c4ccc5c(c4)CCO5)ccc3c1)n2C1CCCCC1,33 µM,inhibition,NS5B polymerase,95.8%
O=C(Nc1ccsc1-c1nc(C(=O)O)c(O)c(=O)[nH]1)OC1CCCCC1,-,IC50,HCV polymerase,<25 µM
O=C(O)c1ccc2c(c1)nc(-c1ccc3nc(-c4cc5ccccc5o4)ccc3c1)n2C1CCCCC1,100 µM,inhibition,NS5B polymerase,100%
O=C(O)c1cc2nccc(-c3cccc(-c4ccsc4)c3)n2n1,-,IC50,RNA-dependent RNA polymerase,>10 µM
CC(=O)c1ccc(-c2cc(NS(=O)(=O)c3ccc(Cl)cc3)c(C(=O)O)s2)cc1,-,IC50,NS3 ATPase,<5 µM
Fc1ccc(-c2cnc3c(-c4nn[nH]n4)cnn3c2C2CCCCC2)cc1F,-,IC50,RNA-dependent RNA polymerase,1–10 µM
CCCC(=O)N(Cc1ccc(Cl)cc1)c1cc(-c2ccccc2)sc1C(=O)O,-,IC50,NS3 ATPase,5–20 µM

2 of the rows above, restated:

{"compound": "Fc1ccc(-c2cnc3c(-c4nn[nH]n4)cnn3c2C2CCCCC2)cc1F", "measure": "IC50", "protein": "RNA-dependent RNA polymerase", "value": "1–10 µM"}
{"compound": "O=C(Nc1cscc1-c1nc(C(=O)O)c(O)c(=O)[nH]1)NC1CCc2ccccc2NC1=O", "measure": "IC50", "protein": "HCV polymerase", "value": "<25 µM"}